Article PMC8950700 (Pharmaceuticals, 2022)

Biological target: NA of the H5N1 virus (Influenza A virus, UniProt A0A0M3MZ16)
Assay: IC50 used for ligand efficiency profile (Table 3)
Details: for LE (ligand efficiency): LE = (pIC50 × 1.37) ÷ NHA; for LLE (ligand lipophilic efficiency): LLE = pIC50 − cLogP

SMILES | LE (ligand efficiency) | LLE (ligand lipophilic efficiency) | LLE (ligand lipophilic efficiency) (listed as (2R,3R,4S,5R)-2-((1-((1H-Benzo[d]imidazol-2-yl)methyl)-1H-1,2,3-triazol-4-yl)met)
CC(=O)OC[C@H]1O[C@@H](OCc2cn(Cc3nc4ccccc4o3)nn2)[C@H](OC(C)=O)[C@@H](OC(C)=O)[C@H]1OC(C)=O [Compound 8b, (2R,3S,4S,5R,6R)-2-(Acetoxymethyl)-6-((1-(benzo[d]oxazol-2-ylmethyl)-1H-1,2,3-triazol-4-yl)methoxy)tetrahydro-2H-pyran-3,4,5-triyl Triacetate] | 0.28 | 6.43 | 
CC(=O)OC[C@H]1O[C@@H](OCc2cn(Cc3nc4ccccc4s3)nn2)[C@H](OC(C)=O)[C@@H](OC(C)=O)[C@H]1OC(C)=O [Compound 8c, (2R,3S,4S,5R,6R)-2-(Acetoxymethyl)-6-((1-(benzo[d]thiazol-2-ylmethyl)-1H-1,2,3-triazol-4-yl)methoxy)tetrahydro-2H-pyran-3,4,5-triyl Triacetate] | 0.30 | 6.88 | 
CC(=O)O[C@@H]1[C@@H](OC(C)=O)[C@H](OCc2cn(Cc3nc4ccccc4[nH]3)nn2)OC[C@H]1OC(C)=O [Compound 9a, (2R,3R,4S,5R,)-2-((1-((1H-Benzo[d]imidazol-2-yl)methyl)-1H-1,2,3-triazol-4-yl)methoxy)tetrahydro-2H-pyran-3,4,5-triyl Triacetate] | 0.34 | 7.32 | 7.3
CC(=O)O[C@@H]1[C@@H](OC(C)=O)[C@H](OCc2cn(Cc3nc4ccccc4o3)nn2)OC[C@H]1OC(C)=O [Compound 9b, (2R,3R,4S,5R)-2-((1-(Benzo[d]oxazol-2-ylmethyl)-1H-1,2,3-triazol-4-yl)methoxy)tetrahydro-2H-pyran-3,4,5-triyl Triacetate] | 0.34 | 7.10 | 
CC(=O)O[C@@H]1[C@@H](OC(C)=O)[C@H](OCc2cn(Cc3nc4ccccc4s3)nn2)OC[C@H]1OC(C)=O [Compound 9c, (2R,3R,4S,5R)-2-((1-(Benzo[d]thiazol-2-ylmethyl)-1H-1,2,3-triazol-4-yl)methoxy)tetrahydro-2H-pyran-3,4,5-triyl Triacetate] | 0.33 | 6.84 | 
